Reference: patent publication US8871807B2, “Detergents capable of cleaning, bleaching, sanitizing and/or disinfecting textiles including sulfoperoxycarboxylic acids” (Ecolab USA Inc., priority 2008, dated 2014)

Test: Bleaching study of sulfonated peracids, Terg-o-tometer, % soil removal
Details: for SR (%) Red Wine on 100% cotton / SR (%) Tea on 100% cotton / SR (%) Tea on cotton-poly blend: 50 ppm available oxygen, 100° F., pH 7, 5 grain hard water, 20 minute; for SR (%) Red Wine on 100% cotton, compared to the POAA control / SR (%) Tea on 100% cotton, compared to the POAA control / SR (%) Tea on cotton-poly blend, compared to the POAA control: difference to equimolar peroxyacetic acid

Structure (SMILES) | SR (%) Red Wine on 100% cotton | SR (%) Tea on 100% cotton | SR (%) Tea on cotton-poly blend | SR (%) Red Wine on 100% cotton, compared to the POAA control | SR (%) Tea on 100% cotton, compared to the POAA control | SR (%) Tea on cotton-poly blend, compared to the POAA control
O=C(CCCCCCCCCCS(=O)(=O)O)OO [Compound D, 11-sulfoundecaneperoxoic acid] | 48% | 12% | 10% | −20% | −38% | −32%
O=C(CCCCCS(=O)(=O)O)OO [Compound 6-SPOHXA, 6-sulfoperoxyhexanoic acid] | 69% | 45% | 45% | 1% | −5% | 2%
